From ChEMBL document CHEMBL5131381, “Design, synthesis, and mechanistic investigations of phenylalanine derivatives containing a benzothiazole moiety as HIV-1 capsid inhibitors with improved metabolic stability” (Eur J Med Chem, 2022)

What was measured:
[1] = test system: MT4; experiment: Cytotoxicity against mock infected human MT4 cells by MTT assay; type: toxicity, cell-based
[2] = test system: Human immunodeficiency virus 1; experiment: Antiviral activity against HIV-1 3B infected in human MT4 cells assessed as protection against virus-induced cytopathic effect by MTT assay; type: functional, organism-based; conditions: Human immunodeficiency virus 1, 3B
[3] = in vitro; conditions: human, MT4 cells (mock-infected and HIV-1 3B-infected)
[4] = in vitro; conditions: human, MT4 cells (mock-infected and HIV-1 ROD-infected)

Row | Compound | CC50 [1] [µM] | EC50 [2] [µM] | selectivity ratio [3] | selectivity ratio [4]
1 | CN(C(=O)[C@H](Cc1ccccc1)NC(=O)c1cccc(C(=O)Nc2ccc(N)cc2)c1)c1ccc2scnc2c1 | 57.4 |  |  | 
2 | CN(C(=O)[C@H](Cc1ccccc1)NC(=O)c1cccc(C(=O)Nc2ccccc2NC(=O)OC(C)(C)C)c1)c1ccc2scnc2c1 |  | 139 | > 1.39 | > 78.3
3 | CN(C(=O)[C@H](Cc1ccccc1)NC(=O)c1cccc(C(=O)Nc2ccc(C(F)(F)F)cc2)c1)c1ccc2scnc2c1 |  |  | ≤ 2.23 | < 1
4 | CN(C(=O)[C@H](Cc1ccccc1)NC(=O)c1cccc(C(=O)Nc2cccc(NC(=O)OC(C)(C)C)c2)c1)c1ccc2scnc2c1 |  |  |  | > 6.81
5 | C#CCNC(=O)c1cccc(C(=O)N[C@@H](Cc2ccccc2)C(=O)N(C)c2ccc3scnc3c2)c1 | 134 |  |  | 
6 | CN(C(=O)[C@H](Cc1ccccc1)NC(=O)c1cccc(C(=O)Nc2ccc(NC(=O)OC(C)(C)C)cc2)c1)c1ccc2scnc2c1 |  |  | < 1 | < 1
